Measured values from several laboratories, pooled; numbers as filed in NIAID ChemDB.

Common to all: tests in culture; species: Mycobacterium tuberculosis

MIC50, MIC90 and the like: level of inhibition, or share of isolates inhibited. MIC bound: limit read from a one-dose screen. Conditions beyond the fields shown may differ between rows. ECn is the concentration giving n% inhibition of infection, replication or growth. Inhibition is in % at the dose shown (toxicity tests: loss of growth or viability). a–b is a range or a potency band. An empty or dashed field is not shown.

SMILES,changes,dose,strain,cell line,read by,endpoint,result
CO[C@H]1/C=C/O[C@@]2(C)Oc3c(C)c(O)c4c(O)c(c(C5SCCS5)c(O)c4c3C2=O)NC(=O)/C(C)=C\C=C\[C@H](C)[C@@H]2OC(C)(C)O[C@H]([C@@H](C)[C@H](O)[C@@H]1C)[C@@H]2C,,,H37Rv,,BACTEC,MIC bound,≤12.5 µg/mL
Cc1ccc(-c2csc(NC(c3ccc(Cl)cc3)C3CCCCC3=O)n2)cc1,,,H37Rv,,broth dilution / agar / visual reading,MIC,50 µg/mL
Cc1csc(C(C)(O)c2nnc(Nc3ncn(Cc4c(F)cccc4F)n3)s2)n1,,,G96V,,,MIC,>25 µM
COc1ccc(-c2csc(NC(c3cccc([N+](=O)[O-])c3)C3CCCCC3=O)n2)cc1,,,H37Rv,,broth dilution / agar / visual reading,MIC,12.5 µg/mL
C[C@@H]1OC(O[C@H]2C(O[C@H]3CC[C@@]4(C)C(CC[C@]5(C)C4CC=C4C6CC(C)(C)CC[C@]6(C(=O)O[C@@H]6O[C@H](CO[C@@H]7O[C@H](CO)[C@@H](OC8OC[C@H](O)[C@H](O)[C@H]8O)[C@H](O)[C@H]7O)[C@@H](O)[C@H](O)[C@H]6O)CC[C@]45C)[C@]3(C)CO)OC[C@H](O)[C@@H]2O)[C@H](O)[C@H](OO[C@@H]2O[C@H](CO)[C@H](O)[C@H]2O)[C@H]1O,,,H37Rv,,,MIC,>1000 µg/mL
Cc1cc(/C=N/Nc2ccnc3ccc(C4CCCCC4)cc23)c(C)n1-c1ccccc1,,,H37Rv,VERO,,MIC,6.25 µg/mL
Nc1nc(F)c(F)c2c1NCN2[C@@H]1O[C@H](CO)[C@@H](O)[C@H]1O,,,SRICK1::ADOK,,,MIC,10–100 µg/mL
CC(=O)NC[C@H]1CN(c2ccc3c(c2)Oc2ccccc2O3)C(=O)O1,,,,,broth dilution / visual reading,MIC90,0.5–1 µg/mL
CC1(O)CC(c2ccccc2)SC(c2ccccc2)=N1,,,H37Rv,,,EC50,>6.25 µg/mL
Cc1cc2c(ncn2[C@@H]2O[C@H](CO)[C@@H](O)[C@H]2O)c(C)n1,,,H37Ra,,,MIC,>100 µg/mL
c1ccc2sc(SCc3ccncc3)nc2c1,,,My 331/88,,,MIC,125 µM
CCC(O)c1c(-c2ccccc2)c(-c2ccccc2)n2ccc(C#N)cc12,,6.25 µg/mL,H37Rv,,,inhibition,96%
COc1cc(C)cc2c1c[n+]1n2CCCC1.[OH-],,,H37Rv,,agar,MIC,32 µg/mL
CCCC(O)c1c(-c2ccccc2)c(-c2ccccc2)n2ccc(C#N)cc12,,6.25 µg/mL,H37Rv,,,inhibition,84%
CCC1=CC(=O)C(C)=C(C)C1=O,,,H37Rv,,BACTEC,MIC bound,≤128 µg/mL
CCCCC(O)c1c(-c2ccccc2)c(-c2ccccc2)n2ccc(C#N)cc12,,,H37Rv,VERO,,MIC,3.13 µg/mL
COc1ccc(C(OC[C@@H](O)CNCCNC[C@H](O)COC(c2ccc(OC)c(OC)c2)c2ccc(OC)c(OC)c2)c2ccc(OC)c(OC)c2)cc1OC,,,H37Rv,,,MIC,12.5 µg/mL
N#Cc1ccn2c(-c3ccccc3)c(-c3ccccc3)c(C(O)C3CCCCC3)c2c1,,6.25 µg/mL,H37Rv,,,inhibition,90%
CC1=C2N3C[C@@H](n4c(=O)n(C)c(=O)n43)[C@@]23CC[C@@H]1n1c(=O)n(C)c(=O)n13,,12.5 µg/mL,H37Rv,,BACTEC,inhibition,0%
NNc1ccnc2cc(Cl)cc(Cl)c12,,12.5 µg/mL,H37Rv,VERO,,inhibition,82%
CCN(CC)CCNC(=O)c1cccc([N+](=O)[O-])c1,,,N353,,,MIC,50 µg/mL
Oc1cc(CCc2ccccc2)ccc1Oc1ccc(Cl)cc1Cl,,,H37Rv,,,MIC,52 µM
NCC[C@H](O)C(=O)N[C@@H]1C[C@H](N)[C@@H](O[C@H]2O[C@H](CN)[C@@H](O)[C@H](O)[C@H]2O)[C@H](O)[C@H]1O[C@H]1O[C@H](CO)[C@@H](O)[C@H](N)[C@H]1O,,,BCG,,,MIC,0.13 µg/mL
C[C@H](O)[C@H]1C(=O)N2C(C(=O)O)=C(S[C@@H]3CN[C@H](C(=O)N(C)C)C3)[C@H](C)[C@H]12,,,,,broth dilution / visual reading,MIC90,4–8 µg/mL
CCN(CC)c1ccc(/C=N/Nc2cc(C)nc3cc(Cl)ccc23)cc1,,12.5 µg/mL,H37Rv,VERO,,inhibition,100%
COc1ccc(-c2csc(NC(c3ccc(OC)cc3)C3CCCCC3=O)n2)cc1,,,H37Rv,,broth dilution / agar / visual reading,MIC,50 µg/mL
CO[C@H]1/C=C/O[C@@]2(C)Oc3c(C)c(O)c4c(O)c(c5c(c4c3C2=O)NC2(CCN(C)CC2)N=5)=NC(=O)/C(C)=C\C=C\[C@H](C)[C@H](O)[C@@H](C)[C@@H](O)[C@@H](C)[C@H](OC(C)=O)[C@@H]1C,,6.25 µg/mL,H37Rv,,resazurin,inhibition,100%
CCN(CC)CCNC(=O)c1ccc([N+](=O)[O-])cc1,,,N353,,,MIC,50 µg/mL
Cc1cc2c(cc1C)-c1c(oc3cc(C)c(C)cc13)-c1ccccc1C(=O)O2,,12.5 µg/mL,H37Rv,,BACTEC,inhibition,0%
O=[N+]([O-])c1cc(Cl)cc2[nH]c(CCc3ccccc3)nc12,,,H37Rv,,broth dilution,MIC,>100 µg/mL
Nc1nc(F)c(F)c2c1ncn2[C@@H]1O[C@H](CO)[C@@H](O)[C@H]1O,,,H37Ra,,,MIC,10–100 µg/mL
Nc1c(NC(=O)CCc2ccccc2)cc(Cl)cc1[N+](=O)[O-],,,H37Rv,,broth dilution,MIC,>100 µg/mL
CC(=N/O)/C(C)=N\O,,12.5 µg/mL,H37Rv,,BACTEC,inhibition,-2%
c1ccc2oc(SCc3ccncc3)nc2c1,,,My 331/88,,,MIC,125 µM
O=C1CCCCC1C(Nc1nc(-c2ccc(O)cc2)cs1)c1ccc(Cl)cc1,,,H37Rv,,broth dilution / agar / visual reading,MIC,12.5 µg/mL
O=c1n(CCCN2CCN(c3cccc(Cl)c3)CC2)nc2n1-c1ccc3ccccc3c1SC2,,6.25 µg/mL,H37Rv,,resazurin,inhibition,42%
N[C@@H]1CONC1=O,,,BCG,,,MIC,8 µg/mL
CC[C@@H](CO)NCCN[C@@H](CC)CO,,,H37Rv,,,MIC,6.25 µg/mL
Cc1cc(N/N=C/c2ccccc2)c2cc(C3CCCCC3)ccc2n1,,,H37Rv,VERO,,MIC,6.25 µg/mL
NCC[C@H](O)C(=O)N[C@@H]1C[C@H](N)[C@@H](O[C@H]2O[C@H](CN)[C@@H](O)[C@H](O)[C@H]2O)[C@H](O)[C@H]1O[C@H]1O[C@H](CO)[C@@H](O)[C@H](N)[C@H]1O,KatG W149R isoniazid-resistant,,H37Rv,,broth dilution,MIC99,0.5 µg/mL
O=C(/N=N/C(=O)N1CCOCC1)N1CCOCC1,,12.5 µg/mL,H37Rv,,BACTEC,inhibition,0%
c1ccc(CSc2ncn[nH]2)nc1,,,My 331/88,,,MIC,>1000 µM
Nc1nc(COC(=O)c2cc(F)cc(C(F)(F)F)c2)cs1,,,H37Rv,,,MIC,1.25 µg/mL
C=C(C)c1ccc2c(c1)C(=O)C[C@@H]1[C@](C)(C#N)CCC[C@]21C,,12.5 µg/mL,H37Rv,,BACTEC,inhibition,92%
Nc1c(NC(=O)/C=C/c2ccccc2)cc(Cl)cc1[N+](=O)[O-],,,Isolate 192,,broth dilution,MIC,>100 µg/mL
CC(=O)c1cc(N)c2nc(C34CC5CC(CC(C5)C3)C4)ccc2c1,,6.25 µg/mL,H37Rv,,,inhibition,0%
Clc1cc(Cl)c2c(N/N=C/c3ccc4c(c3)OCO4)ccnc2c1,,,H37Rv,VERO,,MIC,>12.5 µg/mL
c1ccc2c(CSc3nc4ccccc4s3)cccc2c1,,,My 331/88,,,MIC,500 µM
CC1=NN(C(=O)c2ccc(Cl)cc2)C(=O)C1N=Nc1ccc(S(=O)(=O)Nc2ncccn2)cc1,,,H37Rv,,BACTEC,MIC,≥12.8 µg/mL
NNC(=O)c1ccncc1,,,M103I,,,MIC,0.06 µg/mL
O=C1CCCCC1C(Nc1nc(-c2ccc(O)cc2)cs1)c1ccc(O)cc1,,,H37Rv,,broth dilution / agar / visual reading,MIC,6.25 µg/mL
O=[N+]([O-])c1cc(Cl)cc2[nH]c(CCc3cc(Cl)cc(Cl)c3)nc12,,,Isolate 192,,broth dilution,MIC,>100 µg/mL
NCCC[C@H](N)CC(=O)N[C@H]1CNC(=O)[C@H]([C@H]2C[C@H](O)NC(N)=N2)NC(=O)/C(=C/NC(N)=O)NC(=O)[C@H](CO)NC(=O)[C@H](CO)NC1=O,,,BCG,,,MIC,2 µg/mL
CC1(O)CCSC(c2ccccc2)=N1,,,H37Rv,,,EC50,>6.25 µg/mL
COc1ccc(NC(=O)C(=O)c2c(O)c3ccc(O)cc3oc2=O)c([N+](=O)[O-])c1,,,H37Rv,,BACTEC,MIC bound,>12.5 µg/mL
CCc1ccnc2c([N+](=O)[O-])cc(C(C)=O)c(OC3CCCC3)c12,,6.25 µg/mL,H37Rv,,,inhibition,0%
N#Cc1ccn2c(-c3ccccc3)c(-c3ccccc3)c(Br)c2c1,,6.25 µg/mL,H37Rv,,,inhibition,69%
O=C1CCCCCCCCCCCCCCO1,,,H37Rv,,BACTEC,MIC bound,>12.5 µg/mL
c1cncc(CSc2nc3ccccc3[nH]2)c1,,,My 331/88,,,MIC,1000 µM
CC(=O)C1(C(C)=O)C2=C(C(=O)C(Cl)=C(Cl)C2=O)N2C=CC=CC21,,,H37Rv,,resazurin,MIC bound,>6.25 µg/mL
N#CCCc1cccc(C(=O)OCc2csc(N)n2)c1,,,H37Rv,,,MIC,1.25 µg/mL
Cc1nonc1C(=O)NN,,,H37Rv,,BACTEC,MIC bound,>12.5 µg/mL
COc1c(C(C)=O)cc(N)c2ncccc12,,6.25 µg/mL,H37Rv,,,inhibition,0%
CCN(CC)CCNC(=O)c1ccc(Cl)cc1,,,H37Rv,,,MIC,50 µg/mL
COc1c(C(C)=O)cc([N+](=O)[O-])c2nc(C(C)(C)C)ccc12,,,H37Rv,,,MIC,>6.25 µg/mL
NNC(=O)c1ccncc1,,,H37Ra-lux,,luminescence,EC90,0.31 µM
CCOC(=O)c1nc2sc3c(c2c(=O)[nH]1)CCCC3,,,H37Rv,,BACTEC,MIC bound,≤12.5 µg/mL
CCCCCCOc1c(C(C)=O)cc(N)c2nccc(CC)c12,,6.25 µg/mL,H37Rv,,,inhibition,0%
C/C(=N/NC(=S)NCc1ccccc1)c1nccnc1C,,,PZA-R,,,MIC,1.6 µg/mL
Nc1ccc(S(=O)(=O)c2ccc(N)cc2)cc1,,,BCG,,,MBC,>128 µg/mL
Oc1cc(CC2CCCCC2)ccc1Oc1ccc(Cl)cc1Cl,,,H37Rv,,,MIC,27 µM
CC(C)C1CC(C)(O)N=C(c2ccccc2)S1,,,H37Rv,,,EC50,>6.25 µg/mL
COc1ccc2c(c1)C(C)(C#N)N(C)C(=O)C2=O,,6.25 µg/mL,H37Rv,,resazurin,inhibition,4%
Cc1ccc(-c2c(C(O)c3ccccc3)c3cc(C#N)ccn3c2-c2ccc(C)cc2)cc1,,,H37Rv,VERO,,MIC,3.13 µg/mL
CCC1(O)CCSC(c2ccccc2)=N1,,6.25 µg/mL,H37Rv,,,inhibition,76%
CCCCCCCCCCCCCCCCCC(=O)NC(=O)Nc1ccccc1OC,,,H37Rv,,BACTEC,MIC bound,>12.5 µg/mL
CC(C)N=c1cc2n(-c3ccc(Cl)cc3)c3ccccc3nc-2cc1Nc1ccc(Cl)cc1,KatG W149R mutation,,H37Rv,,broth dilution,MIC99,0.125 µg/mL
CC1=C(C)C(=O)C(C(C)(C)CC(=O)n2cc(F)c(=O)[nH]c2=O)=C(C)C1=O,,,H37Rv,VERO,,MIC,2 µg/mL
CC(O)C1C(=O)N2C(C(=O)O)C=C(SC3CN(C4=NCCC4)C3)C12,,,,,broth dilution / visual reading,MIC90,1.25–2.5 µg/mL
Nc1cc(S(N)(=O)=O)ccc1SSc1ccc(S(N)(=O)=O)cc1N,,,H37Rv,,BACTEC,MIC bound,>12.5 µg/mL
Nc1ccc(C(=O)O)c(O)c1,,,BCG,,,MBC,8 µg/mL
NC(=S)c1cc(SCc2ccncc2)ccn1,,,My 331/88,,,MIC,8 µM

Repeating the first 7 entries:

SMILES | changes | dose | strain | cell line | read by | endpoint | result
CO[C@H]1/C=C/O[C@@]2(C)Oc3c(C)c(O)c4c(O)c(c(C5SCCS5)c(O)c4c3C2=O)NC(=O)/C(C)=C\C=C\[C@H](C)[C@@H]2OC(C)(C)O[C@H]([C@@H](C)[C@H](O)[C@@H]1C)[C@@H]2C |  |  | H37Rv |  | BACTEC | MIC bound | ≤12.5 µg/mL
Cc1ccc(-c2csc(NC(c3ccc(Cl)cc3)C3CCCCC3=O)n2)cc1 |  |  | H37Rv |  | broth dilution / agar / visual reading | MIC | 50 µg/mL
Cc1csc(C(C)(O)c2nnc(Nc3ncn(Cc4c(F)cccc4F)n3)s2)n1 |  |  | G96V |  |  | MIC | >25 µM
COc1ccc(-c2csc(NC(c3cccc([N+](=O)[O-])c3)C3CCCCC3=O)n2)cc1 |  |  | H37Rv |  | broth dilution / agar / visual reading | MIC | 12.5 µg/mL
C[C@@H]1OC(O[C@H]2C(O[C@H]3CC[C@@]4(C)C(CC[C@]5(C)C4CC=C4C6CC(C)(C)CC[C@]6(C(=O)O[C@@H]6O[C@H](CO[C@@H]7O[C@H](CO)[C@@H](OC8OC[C@H](O)[C@H](O)[C@H]8O)[C@H](O)[C@H]7O)[C@@H](O)[C@H](O)[C@H]6O)CC[C@]45C)[C@]3(C)CO)OC[C@H](O)[C@@H]2O)[C@H](O)[C@H](OO[C@@H]2O[C@H](CO)[C@H](O)[C@H]2O)[C@H]1O |  |  | H37Rv |  |  | MIC | >1000 µg/mL
Cc1cc(/C=N/Nc2ccnc3ccc(C4CCCCC4)cc23)c(C)n1-c1ccccc1 |  |  | H37Rv | VERO |  | MIC | 6.25 µg/mL
Nc1nc(F)c(F)c2c1NCN2[C@@H]1O[C@H](CO)[C@@H](O)[C@H]1O |  |  | SRICK1::ADOK |  |  | MIC | 10–100 µg/mL